In the supplement of paper PMC9931576:
Human monoclonal antibodies against the spike receptor-binding domain (heavy:light variable regions). IC50 against pseudoviruses bearing the spike of naturally observed variants; lower = stronger; >10 µg/ml means not reached at the top dose. No active / inactive call. The stated detection limit is 0.0005 µg/ml; values near or below 0.001 µg/ml lie at the floor of the assay.

B1: BD55-5300 (protein)
chain 1: QVQLVQSGAEVKKPGSSVKVSCKASGGSFTSHAVSWVRQAPGQGLEWMGVSIPLFGTAKYAQKFQGRVTITADESTSTVYMSLSNLRSGDTAVYYCARLFPNGTPTDLTAPSDYWGQGTLVTVSS
chain 2: DIQMTQSPSSLSASVGDRVTITCQASQDIGNYLNWYQQKPGKAPKLLIYDASHLETGVPSRFSGSASGTDFTLTISSLQPDDIATYYCQRYDDVPTYTFGQGTKLEIK
B2: BD55-1038 (protein)
chain 1: EVQLLESGGGLVQPGGSLRLSCAASGFTFSDYAMSWVRQAPGKALDWVAAISGDGGLRFYADSVKGRFTISRENSKSSVYLQMSGLKAEDTAIYYCVRESVWEPVGPNWFDPWGQGTLVIVSS
chain 2: DIQMTQSPSSLSAYVGDRVTITCRASQSIGNYLNWYQQKPGKAPKLLIYAASSLQSGVPVRFSGSGSGRDFTLTISGLQPEDFASYYCQQSYEAPPWTFGQGTKVEIK
B3: BD55-5303 (protein)
chain 1: QVHLVQSGSELKKPGASVKVSCKASGYSFTDYPMNWVRQAPGQGLEWMGWINTNTGHPTYAQGFTGRFVFSLDTSVSTAYLQINSLKPEDTATYYCSRIAGTWWGEGKNWFDPWGQGTLVTVSS
chain 2: DIVMTQSPDSLAVSLGERATINCKSSHSVFSSPDNQNYLAWYQQKPGQPPELLIYWAFTRESGVPDRFSGSGSGTDFTLTISSLQAEDVAVYYCQQYYSSPLTFGGGTKVEIK
B4: BD55-5305 (protein)
chain 1: QVQLVQPGSELRKPGASVKVSCKASGYSFSDFAMNWVRQAPGQGLEWMGWINTKNGDPTYAPGFTGRFVFSLDTSVSTTYLQITSLKAEDTAVYFCARDFGYYAAGSYFDYWGQGTLVSVSS
chain 2: QSVLTQPPSVSAAPGQMVTISCSGRSSIIETNYVSWYQQLPGTAPKLLIYDNYKRPSGIPDRFSVSKSGTSATLAITGLQTGDEADYYCGAWDSSLNAWVFGGGTKLTVL
B5: BD55-5319 (protein)
chain 1: QVQLVQSGAEVKRPGASVKVSCKASENTFTTYAIHWVRQAPGQGLEWLGSINAGNGDTKHSQKFQGRVTISRDTSASTVYMDLSSLRSEDTAVYYCARARIVDAGMATFHHYFGIDVWGLGTTVTVSS
chain 2: SYELTQPPSVSVSPGQTATITCSGDALPKQYAYWYQQKSGQAPVLLIYKDTERPSGIPERFSGSSSGTTVTLTISGVQAEDEADYYCQSADASTTYIIFGGRTKLTVL
B6: BD55-5339 (protein)
chain 1: EVQLVESGEGLVQPGGSLRISCAASGFTFSNYPMHWVRQAPGQGLESVSSITSNGDGTFYANSVKGRFTISRDNSKNTLYLQMGSLRTEDTALYFCAREVAEQLDCYFDLWGRGTLVTVSS
chain 2: DIQMTQSPSSLSASVGDRVTITCRASQSIRTYLNWYQHKPGKAPKLLIFAASSLQSGVPSRFSGSGSGTDFSLTISSLQPEDFATYYCQQSYITPPITFGQGTRLEIK
B7: BD55-5361 (protein)
chain 1: EVQLVESGGGLVQPGGSLRLSCAASGFTFSSFDMHWVRQTTGKGLEWVSTIGTSGDTYYADSVKGRFTISRENAKNSLFLQMNSLRAGDTAVYYCARANYVGLTSYHDFWGQGTLVTVSS
chain 2: DIQMTQSPSSLSASVGDRVTITCRASQYISSYLNWYQQKPGKEPKLLIFAASTLQSGVPSRFSGGRSGTDFTLTISSLQPEDFATYYCQQTYVSPQFTFGQGTRLDIK
B8: BD55-5387 (protein)
chain 1: EVQLVESGGGLVQPGRSLRLSCGASGFMFDDYALHWVRQAPGRGLEWVSSISWNSGDIAYADSVKGRFTISRDNAKHSLYLQMNSLRGDDTAFYYCARSRLAEMVGVHFDYWGQGALVTVSS
chain 2: EIVMTQSPATLSVSPGDRATLSCRASQSVSSNLAWYQQKPGQAPRLLIYGASTRATGIPARFSGSGSGTEFTLTISSLQSEDFGVYYCQQYNTWPPMYTFGQGTKLEIK
B9: BD55-5389 (protein)
chain 1: EAQLEESGGGLVKPGGSLRLSCVASGFTFNSYSMNWLRQAPGKGLEWVASMSRDSALKFYADSAQGRFTISRDNAKNSLFLHMSSLRAEDTAVYYCARESALTMTVDLDLWGQGTLVTVS
chain 2: DVQMTQSPPFLSASVGDRVTITCRASQNINTYLNWYQHKPGKAPKLLIYGASTLQRGVPSRFSGSGSGTDFSLTITGLQPEDFATYFCQQTYITPRVTFGQGTKLEIK
B10: BD55-1049 (protein)
chain 1: QVQLVQSGAEVQKPGASVKVSCKASGYTFSAYYMYWVRQAPGQGLEWMGWINCNSGETKYAQNFQGSVNMTRDSSISTAYMELSRLRSDDTAVYYCARVNRREWGPQYGMDIWGQGTTVTVSS
chain 2: DIVMTQTPLFLSVTPGQPASISCKSSQSLLHGGGKTYLSWYLQKPGQSPRLLIYEVSNRFSVLPERFSGSGSGTDFTLKISRVQAEDVGVYYCMQGLSLPWTFGQGTKVEIK
B11: BD55-5396 (protein)
chain 1: EVQLVESGGGLIKPGGSLRLSCAASGFTFNSYTMSWVRQAPGKGLEWVSSISGSSTFIFYADSLKGRFTISRDNARNSLYLQMNTLRAEDTAVYYCARNFDILTPYADAEYFQYWGPGTLVTVSS
chain 2: EIVLTQSPATLSLSPGERATLSCRASQSVSSNVAWYQQKPGQAPRLLIYDASNRATGIPARFSGSGSGTDFTLTINSLEPEDFAVYYCQQRTNWPPYTFGQGTKLEIK
B12: BD55-5397 (protein)
chain 1: QVQLVQSGAEVKKPGTSVKVSCKPSGGTFNGYAINWVRQAPGQGLEWMGGIIPVFDTTNYAQKFQGRVRITADQSTSTAYVELSGLRSEDTAVYYCARSKYHPGYDMLTGRPDVSLPFDYWGQGTLVTVSS
chain 2: DIQMTQSPSSLSASVGDRVTITCQASQDISSHLSWYQQKPGKGPKLLIYHASNLETGVPSRFSGSGSGTDFIFTINSLQPEDIAIYYCQQYDNLPYTFGQGTKLE

molecular target: SARS-CoV-2 Omicron BA.1 spike pseudovirus; assay: pseudovirus neutralization IC50; higher = weaker neutralization
Protocol: (§1)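 Single-round VSV luciferase pseudovirus mixed with antibody dilutions for 1 h and put on Huh-7 cells for about a day; IC50 from the dose curve.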

Row | Binder | pseudovirus neutralization IC50 [µg/mL]
1 | B1 | 0.00783
2 | B2 | 4.4
3 | B3 | 2.19
4 | B4 | > 10
5 | B5 | 0.159
6 | B6 | > 10
7 | B7 | > 10
8 | B8 | > 10
9 | B9 | > 10
10 | B10 | > 10
11 | B11 | > 10
12 | B12 | 2.49

molecular target: SARS-CoV-2 Omicron BA.2 spike pseudovirus; assay: as above
Protocol: as §1

Row | Binder | pseudovirus neutralization IC50 [µg/mL]
13 | B1 | 0.00662
14 | B2 | > 10
15 | B3 | 5.65
16 | B4 | > 10
17 | B5 | 0.367
18 | B6 | > 10
19 | B7 | > 10
20 | B8 | > 10
21 | B9 | > 10
22 | B10 | > 10
23 | B11 | > 10
24 | B12 | 1.17

molecular target: SARS-CoV-2 Omicron BA.2.75 spike pseudovirus; assay: as above
Protocol: as §1

Row | Binder | pseudovirus neutralization IC50 [µg/mL]
25 | B1 | 0.00792
26 | B2 | > 10
27 | B3 | > 10
28 | B4 | > 10
29 | B5 | 1.22
30 | B6 | > 10
31 | B7 | > 10
32 | B8 | > 10
33 | B9 | > 10
34 | B10 | > 10
35 | B11 | > 10
36 | B12 | 2.72

molecular target: SARS-CoV-2 Omicron BA.5 spike pseudovirus; assay: as above
Protocol: as §1

Row | Binder | pseudovirus neutralization IC50 [µg/mL]
37 | B1 | 0.00547
38 | B2 | > 10
39 | B3 | 3.34
40 | B4 | > 10
41 | B5 | 1.09
42 | B6 | > 10
43 | B7 | > 10
44 | B8 | > 10
45 | B9 | > 10
46 | B10 | > 10
47 | B11 | > 10
48 | B12 | 3.22

molecular target: SARS-CoV-2 Omicron BQ.1.1 spike pseudovirus; assay: as above
Protocol: as §1

Row | Binder | pseudovirus neutralization IC50 [µg/mL]
49 | B1 | 0.0304
50 | B2 | > 10
51 | B3 | > 10
52 | B4 | > 10
53 | B5 | > 10
54 | B6 | > 10
55 | B7 | > 10
56 | B8 | > 10
57 | B9 | > 10
58 | B10 | > 10
59 | B11 | > 10
60 | B12 | 3.08

molecular target: SARS-CoV-2 Omicron XBB spike pseudovirus; assay: as above
Protocol: as §1

Row | Binder | pseudovirus neutralization IC50 [µg/mL]
61 | B1 | 0.0108
62 | B2 | > 10
63 | B3 | > 10
64 | B4 | > 10
65 | B5 | > 10
66 | B6 | > 10
67 | B7 | > 10
68 | B8 | > 10
69 | B9 | > 10
70 | B10 | > 10
71 | B11 | > 10
72 | B12 | 2.72

molecular target: SARS-CoV-2 early D614G spike pseudovirus; assay: as above
Protocol: as §1

Row | Binder | pseudovirus neutralization IC50 [µg/mL]
73 | B1 | 0.0051
74 | B2 | > 10
75 | B3 | 0.0013
76 | B4 | 1
77 | B5 | 0.015
78 | B6 | 0.152
79 | B7 | 2.39
80 | B8 | 0.73
81 | B9 | > 10
82 | B10 | 0.0477
83 | B11 | 1.92
84 | B12 | 0.442
